Enrichment data for one substance are collected here from publication PMC12313075, “Legionella effector LpPIP recruits protein phosphatase 1 to the mitochondria to induce dephosphorylation of outer membrane proteins” (2025).

Among the targets are MGST3; RMDN3; TOMM70A; VDAC1; VDAC2; VDAC3.
Holding throughout (assay): co-immunoprecipitation (anti-FLAG) and mass spectrometry
Settings in all cases: read off a plot

Take “FLAG-Lpg1625 (LpPIP, Legionella pneumophila PP1-Interacting Protein) (from UniProt Q5ZV17) K17A; V19A”: the enrichment came out at 1.7 log2 with MGST3; 2.4 log2 with RMDN3; 2.6 log2 with TOMM70A; 5.6 log2 with VDAC1; 3.3 log2 in the assay with VDAC2; 3.4 log2 in the assay with VDAC3.
